Results on 1 molecule are retold here after patent US20040018487A1 (published 2004).

By EC50 is commonly meant the concentration giving half of the maximal effect. Read a low EC50 as higher potency in that assay.

For the test, the target named is HPV 16 E6 C-terminal PL peptide (TQL), biotinylated (HPV 16). Put plainly: G assay, HPV16 E6 PL peptide titrated against a constant amount of GST-PDZ.

B1: GST-PSD95 PDZ domain 2 (other)
chain: MSPILGYWKIKGLVQPTRLLLEYLEEKYEEHLYERDEGDKWRNKKFELGLEFPNLPYYIDGDVKLTQSMAIIRYIADKHNMLGGCPKERAEISMLEGAVLDIRYGVSRIAYSKDFETLKVDFLSKLPEMLKMFEDRLCHKTYLNGDHVTHPDFMLYDALDVVLYMDPMCLDAFPKLVCFKKRIEAIPQIDKYLKSSKYIAWPLQGWQATFGGGDHPPKSDLIEGREIKLIKGPKGLGFSIAGGVGNQHIPGDNSIYVTKIIEGGAAHKDGRLQIGDKILAVNSVGLEDVMHEDAVAALKNTYDVVYLKVAKP
notes: also called PSD 95 (2); PSD 95 (PDZ #2)
The molecule B1 gave a concentration giving a half-maximal response (EC50) of 6.8 µM.
